Measured values from several laboratories, pooled; numbers as filed in NIAID ChemDB.

Shared fields: tests on isolated targets; organism: HIV; protein: Reverse transcriptase

Rows are shuffled and stem from different studies.

compound	method	changes	read-out	value
S=C(Cc1ccccn1)NCc1ccccc1Cl	radiometric	Y181I	IC50	>100 µM
Cc1c(Cc2cccc3ccccc23)nc(SCCc2ccccc2)[nH]c1=O	ELISA		IC50	517 µM
S=C(Cc1ccccn1)Nc1ccc(Cl)cc1	radiometric	Y181I	IC50	>100 µM
Nc1nc2c(ncn2[C@H]2CC[C@@H](COP(=O)(O)OP(=O)(O)OP(=O)(O)OP(=O)(O)OC[C@@H]3CC[C@H](n4cnc5c(=O)[nH]c(N)nc54)O3)O2)c(=O)[nH]1	nucleotide incorporation / radiometric	RT-K65R	IC50	9.5 µM
S=C(Cc1ccccn1)NCCc1ccccc1	radiometric	K103N	IC50	92.7 µM
Cc1ccnc2c1NC(=O)c1cc(N)c[nH+]c1N2C1CC1	RT activity	Y181C	IC50	126 µM
CCc1c(Cc2ccccc2)nc(SCC(=O)c2ccccc2)[nH]c1=O	ELISA		IC50	0.35 µM
CCN1c2nc(Cl)ccc2NC(=O)c2cc(CSc3cccc(C)c3)cnc21	RT activity	K103N	IC50	0.39 µM
CC(C)=CCN1Cc2cccc3[nH]c(=S)n(c23)C[C@@H]1C	nucleotide incorporation		Ki	0.52 µM
CCN1c2nc(Cl)ccc2NC(=O)c2cc(CSc3cccc(OC)c3)cnc21	RT activity	K103N	IC50	19.4 µM
Nc1ccn([C@H]2CC[C@@H](COP(=O)(O)OP(=O)(O)OP(=O)(O)O)O2)c(=O)n1		RT-T215Y	Ki	17 µM
COc1ccc2nc3cc(Cl)ccc3c(NCCCNCCCNCCCN)c2c1	nucleotide incorporation / radiometric		IC50	3.7 µg/mL
Fc1cccc(F)c1CC(=S)NCCc1ccccn1	radiometric	L100I	IC50	>100 µM
Nc1nc2c(ncn2[C@H]2CC[C@@H](COP(=O)(O)OP(=O)(O)OP(=O)(O)O)O2)c(=O)[nH]1		RT-L74V T215Y	Ki	0.2 µM
Cc1ccnc2c1NC(=O)c1cc(N)cnc1N2C1CC1	RT activity	Y181C	IC50	61 µM
Nc1ccn([C@@H]2CS[C@H](COP(=O)(O)OP(=O)(O)OP(=O)(O)O)O2)c(=O)n1	radiometric	RT-K103N	Ki	0.123 µM
CCc1c(Cc2ccccc2)nc(SCC(=O)c2ccco2)[nH]c1=O	ELISA		IC50	0.45 µM
Cc1cn([C@H]2CC[C@@H](COP(=O)(O)OP(=O)(O)OP(=O)(O)OP(=O)(O)OC[C@@H]3CC[C@H](n4cc(C)c(=O)[nH]c4=O)O3)O2)c(=O)[nH]c1=O	nucleotide incorporation / radiometric	RT-D67N K70R T215Y K219Q	IC50	0.92 µM
Cc1cn([C@H]2CC[C@@H](COP(=O)(O)OP(=O)(O)OP(=O)(O)O)O2)c(=O)[nH]c1=O	nucleotide incorporation / radiometric	RT-V75I F77L F116Y Q151M	Ki	0.49 µM
COc1ccc2nc3cc(Cl)ccc3c(NCCCCCCCN)c2c1	nucleotide incorporation / radiometric		IC50	9.5 µg/mL
Nc1ncnc2c1ncn2[C@H]1CC[C@@H](COP(=O)(O)OP(=O)(O)OP(=O)(O)O)O1	nucleotide incorporation / radiometric	RT-F116Y Q151M	IC50	19 µM
COc1ccc2nc3cc(Cl)ccc3c(NCC(C)(C)CN)c2c1	nucleotide incorporation / radiometric		IC50	23 µg/mL
CCOCn1c(Sc2ccccc2)c(CC)c(=O)[nH]c1=O	nucleotide incorporation	RT-V60T	IC50	0.321 µM
Cc1cc(Cc2ccc(Cl)c(Oc3cc(C#N)cc(C#N)c3)c2F)n[nH]c1=O		WT	IC50	0.001 µM
CC(C)c1c(Cc2cccc3ccccc23)nc(SCCc2ccccc2)[nH]c1=O	ELISA		IC50	482 µM
CCN1c2ncc(CSc3cccc(OC)c3)cc2C(=O)N(C)c2c(C)cc(Cl)nc21	RT activity	Y181C	IC50	0.118 µM
COc1ccc2nc3cc(Cl)ccc3c(NCCNCCN)c2c1	nucleotide incorporation / radiometric		IC50	8.4 µg/mL
Cc1c(Cc2cccc3ccccc23)nc(SCC(=O)c2ccco2)[nH]c1=O	ELISA		IC50	5.99 µM
COc1ccc2nc3cc(Cl)ccc3c(NCCCCCCN)c2c1	nucleotide incorporation / radiometric		IC50	7.6 µg/mL
Nc1ccn([C@H]2CC[C@@H](COP(=O)(O)OP(=O)(O)OP(=O)(O)OP(=O)(O)OC[C@@H]3CC[C@H](n4ccc(N)nc4=O)O3)O2)c(=O)n1	nucleotide incorporation / radiometric	RT-D67N K70R T215Y K219Q	IC50	0.18 µM
COc1ccc2nc3cc(Cl)ccc3c(NCCCN3CCOCC3)c2c1	nucleotide incorporation / radiometric		IC50	46 µg/mL
CNc1ccccc1C(=O)O[C@H]1[C@@H](O)[C@H](n2cnc3c(N)ncnc32)O[C@@H]1COP(=O)(O)OP(=O)(O)OP(=O)(O)OP(=O)(O)OC[C@@H]1CC[C@H](n2cnc3c(=O)[nH]c(N)nc32)O1	nucleotide incorporation / radiometric	RT-D67N K70R T215Y K219Q	IC50	0.83 µM
CC(C)c1c(Cc2ccccc2)nc(SCCc2ccccc2)[nH]c1=O	ELISA		IC50	549 µM

The first 3 rows once more:

compound | method | changes | read-out | value
S=C(Cc1ccccn1)NCc1ccccc1Cl | radiometric | Y181I | IC50 | >100 µM
Cc1c(Cc2cccc3ccccc23)nc(SCCc2ccccc2)[nH]c1=O | ELISA |  | IC50 | 517 µM
S=C(Cc1ccccn1)Nc1ccc(Cl)cc1 | radiometric | Y181I | IC50 | >100 µM

ICn is the concentration giving n% inhibition. Blank or dashed fields: not listed here.